Settings in all cases: exposure time 48 h
Test [1] concerns Caenorhabditis elegans N2. As to the kind of experiment: lowest effective concentration for larval growth inhibition (size below effect threshold); higher = less potent. The method in brief: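 Each well of a 96-well plate received 50 C. elegans N2 L1 larvae, which grew for 48 h at 20°C in K-medium containing killed bacteria, 1% DMSO and the chemical at 0.5, 1, 5, 10, 50, 100 or 200 µM. A Biosort recorded the extinction of every worm as its size, and these readings were log-transformed and averaged per well. The lowest effective concentration is defined as the first dose at which the plate-adjusted mean size falls below the threshold and stays below it at all higher doses; that threshold is 5.665.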

The test system of test [2] is Caenorhabditis elegans N2. As to the kind of experiment: mean nematode size ln(EXT) after 48 h, plate-adjusted (DMSO control set to 6) (ln(EXT), control-adjusted); higher = larger nematodes / less growth inhibition. The method in brief:
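C. elegans N2 larvae, synchronised at L1, grew for 48 h at 20°C in K-medium with killed OP50, 1% DMSO and 0.5–200 µM chemical. Mean size per well was derived from natural-logged Biosort extinction after a growth model removed debris. Adjustment across plates involved subtracting the vehicle control mean and adding 6.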

For test [3], the system named is Caenorhabditis elegans N2. As to the kind of experiment: AC50 for larval growth inhibition (Hill fit); higher = less potent. In short, it runs like this:
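Synchronised C. elegans N2 L1 larvae (50 per well, 96-well plates) were grown for 48 h at 20°C in K-medium with killed OP50, 1% DMSO and 0.5–200 µM chemical. The COPAS Biosort measured each worm's size as extinction, which was log-transformed and averaged per well. AC50 came from a constrained Hill fit by weighted genetic-algorithm regression on wells with at least 10 worms. Out-of-range values are censored.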

The structures appear in SMILES notation.

For `CCCCOP(=O)(OCCCC)OCCCC` [Tributyl phosphate], the lowest effective concentration in test [1] was above 200 µM. In addition, the “mean nematode size ln(EXT) (ln)” value in test [2] (0.5 µM) is 5.69; in test [2] (1 µM), 5.77; in test [2] (5 µM), 5.68; in test [2] (10 µM), 5.75; in test [2] (50 µM), 5.7; in test [2] (100 µM) it was 5.61. Besides, in test [2] (200 µM), the “mean nematode size ln(EXT) (ln)” value was determined as 5.67.

`O=C1C2CC=CCC2C(=O)N1SC(Cl)(Cl)C(Cl)Cl` (configuration not stated) [Captafol]: the lowest effective concentration in test [1] is 1 µM. For the same compound, the “mean nematode size ln(EXT) (ln)” value was 5.73 in test [2] (0.5 µM); 5.38 in test [2] (1 µM); 4.7 in test [2] (5 µM); 3.84 in test [2] (10 µM); 4.01 in test [2] (50 µM); 3.95 in test [2] (100 µM). The “mean nematode size ln(EXT) (ln)” value in test [2] (200 µM) was determined as 3.59. In addition, in test [3], the “AC50 for larval growth inhibition” value was 2710 nM.

For the origin of these results see the supplement of paper PMC4858399.
